{"source": "patent US20030220338A1", "about": "“Fungal efflux pump inhibitors” (priority 2001, published 2003)", "key": {"[1]": {"tested_on": "Candida albicans YEM15 (over-expressing the CDR1 and CDR2 pumps)", "assay": "Checkerboard / broth microdilution assay, potentiation of fluconazole vs. C. albicans", "conditions": "for MIC: Candida albicans, 48 h; for MPC8 = concentration of efflux pump inhibitor necessary to reduce the fluconazole MIC 8-fold: in combination with fluconazole, strain YEM15"}, "[2]": {"tested_on": "C. glabrata YEM19 (over-expressing the CgCDR1 and CgCDR2 pumps)", "assay": "Checkerboard / broth microdilution assay, potentiation of fluconazole vs. C. glabrata", "conditions": "for MIC: Nakaseomyces glabratus, 48 h; for MPC8: in combination with fluconazole, strain YEM19"}}, "data": [{"smiles": "COc1ccc(N(C(=O)Nc2ccc(Cl)nn2)C(C)c2nc3ccccc3c(=O)n2N2CCN(C)CC2)c(OC)c1", "note": "(centres unmarked) [Compound 58]", "values": [{"measurement": "MIC", "setting": "[1]", "value": "> 32", "unit": "µg/mL"}, {"measurement": "MPC8 = concentration of efflux pump inhibitor necessary to reduce the fluconazole MIC 8-fold", "setting": "[1]", "value": 16, "unit": "µg/mL"}, {"measurement": "MIC", "setting": "[2]", "value": "> 32", "unit": "µg/mL"}, {"measurement": "MPC8", "setting": "[2]", "value": 8, "unit": "µg/mL"}]}, {"smiles": "COc1ccc(N(C(=O)Nc2cccc(Cl)c2)C(C)c2nc3ccccc3c(=O)n2N2CCN(S(C)(=O)=O)CC2)c(OC)c1", "note": "(centres unmarked) [Compound 124]", "values": [{"measurement": "MIC", "setting": "[1]", "value": "> 32", "unit": "µg/mL"}, {"measurement": "MPC8 = concentration of efflux pump inhibitor necessary to reduce the fluconazole MIC 8-fold", "setting": "[1]", "value": "≦0.03 μg/ml"}, {"measurement": "MIC", "setting": "[2]", "value": "> 32", "unit": "µg/mL"}, {"measurement": "MPC8", "setting": "[2]", "value": 2, "unit": "µg/mL"}]}, {"smiles": "COc1ccc(N(C(=O)Nc2ccc(F)cc2)C(C)c2nc3ccccc3c(=O)n2N2CCN(C(=O)[C@@H]3CCCN3)CC2)c(OC)n1", "note": "(some centres unmarked) [Compound 157]", "values": [{"measurement": "MIC", "setting": "[1]", "value": "> 32", "unit": "µg/mL"}, {"measurement": "MPC8 = concentration of efflux pump inhibitor necessary to reduce the fluconazole MIC 8-fold", "setting": "[1]", "value": 16, "unit": "µg/mL"}, {"measurement": "MIC", "setting": "[2]", "value": "> 32", "unit": "µg/mL"}, {"measurement": "MPC8", "setting": "[2]", "value": 4, "unit": "µg/mL"}]}, {"smiles": "COc1ccc(N(C(=O)Nc2ccc(F)cc2)C(C)c2nc3ccccc3c(=O)n2N2CCN(C(=O)CC#N)CC2)c(OC)c1", "note": "(centres unmarked) [Compound 142]", "values": [{"measurement": "MIC", "setting": "[1]", "value": "> 32", "unit": "µg/mL"}, {"measurement": "MPC8 = concentration of efflux pump inhibitor necessary to reduce the fluconazole MIC 8-fold", "setting": "[1]", "value": 2, "unit": "µg/mL"}, {"measurement": "MIC", "setting": "[2]", "value": "> 32", "unit": "µg/mL"}, {"measurement": "MPC8", "setting": "[2]", "value": 4, "unit": "µg/mL"}]}, {"smiles": "COC(=O)c1ccc2c(=O)n(N3CCN(C)CC3)c(C(C)N(C(=O)Nc3ccc(F)cc3)c3ccc(OC)cc3OC)nc2c1", "note": "(centres unmarked) [Compound 80]", "values": [{"measurement": "MIC", "setting": "[1]", "value": "> 32", "unit": "µg/mL"}, {"measurement": "MPC8 = concentration of efflux pump inhibitor necessary to reduce the fluconazole MIC 8-fold", "setting": "[1]", "value": 32, "unit": "µg/mL"}, {"measurement": "MIC", "setting": "[2]", "value": "> 32", "unit": "µg/mL"}, {"measurement": "MPC8", "setting": "[2]", "value": 2, "unit": "µg/mL"}]}, {"smiles": "COc1ccc(N(C(=O)Nc2ccc(F)cc2)C(C)c2nc3ccccc3c(=O)n2N2CCN(C(=O)N3CCOCC3)CC2)c(OC)c1", "note": "(centres unmarked) [Compound 57]", "values": [{"measurement": "MIC", "setting": "[1]", "value": "> 32", "unit": "µg/mL"}, {"measurement": "MPC8 = concentration of efflux pump inhibitor necessary to reduce the fluconazole MIC 8-fold", "setting": "[1]", "value": 1, "unit": "µg/mL"}, {"measurement": "MIC", "setting": "[2]", "value": "> 32", "unit": "µg/mL"}, {"measurement": "MPC8", "setting": "[2]", "value": 1, "unit": "µg/mL"}]}, {"smiles": "COc1ccc(N(C(=O)Nc2ccc(F)cc2)C(C)c2nc3ccccc3c(=O)n2N2CCN(C(=O)Cc3c[nH]cn3)CC2)c(OC)c1", "note": "(centres unmarked) [Compound 155]", "values": [{"measurement": "MIC", "setting": "[1]", "value": "> 32", "unit": "µg/mL"}, {"measurement": "MPC8 = concentration of efflux pump inhibitor necessary to reduce the fluconazole MIC 8-fold", "setting": "[1]", "value": 8, "unit": "µg/mL"}, {"measurement": "MIC", "setting": "[2]", "value": "> 32", "unit": "µg/mL"}, {"measurement": "MPC8", "setting": "[2]", "value": 1, "unit": "µg/mL"}]}, {"smiles": "COc1ccc(N(C(=O)Nc2ccc(F)cc2)C(C)c2nc3ccccc3c(=O)n2N2CCN(C(=O)C3CCN(C(=O)OC(C)(C)C)CC3)CC2)c(OC)c1", "note": "(centres unmarked) [Compound 168]", "values": [{"measurement": "MIC", "setting": "[1]", "value": "> 32", "unit": "µg/mL"}, {"measurement": "MPC8 = concentration of efflux pump inhibitor necessary to reduce the fluconazole MIC 8-fold", "setting": "[1]", "value": 8, "unit": "µg/mL"}, {"measurement": "MIC", "setting": "[2]", "value": "> 32", "unit": "µg/mL"}, {"measurement": "MPC8", "setting": "[2]", "value": 4, "unit": "µg/mL"}]}, {"smiles": "COc1ccc(N(C(=O)Nc2cccc(F)c2)C(C)c2nc3ccccc3c(=O)n2N2CCNCC2)c(OC)c1", "note": "(centres unmarked) [Compound 129]", "values": [{"measurement": "MIC", "setting": "[1]", "value": "> 32", "unit": "µg/mL"}, {"measurement": "MPC8 = concentration of efflux pump inhibitor necessary to reduce the fluconazole MIC 8-fold", "setting": "[1]", "value": 32, "unit": "µg/mL"}, {"measurement": "MIC", "setting": "[2]", "value": "> 32", "unit": "µg/mL"}, {"measurement": "MPC8", "setting": "[2]", "value": 32, "unit": "µg/mL"}]}, {"smiles": "COc1ccc(N(C(=O)Nc2ccc(F)cc2)C(C)c2nc3ccccc3c(=O)n2N2CCN(C(=O)[C@@H]3CCCN3C(=O)OC(C)(C)C)CC2)c(OC)c1", "note": "(some centres unmarked) [Compound 53]", "values": [{"measurement": "MIC", "setting": "[1]", "value": "> 32", "unit": "µg/mL"}, {"measurement": "MPC8 = concentration of efflux pump inhibitor necessary to reduce the fluconazole MIC 8-fold", "setting": "[1]", "value": 4, "unit": "µg/mL"}, {"measurement": "MIC", "setting": "[2]", "value": "> 32", "unit": "µg/mL"}, {"measurement": "MPC8", "setting": "[2]", "value": 1, "unit": "µg/mL"}]}, {"smiles": "COc1ccc(N(C(=O)Nc2ccc(F)cc2)C(C)c2nc3ccccc3c(=O)n2N2CCN(C(=O)Cn3ccnc3)CC2)c(OC)c1", "note": "(centres unmarked) [Compound 141]", "values": [{"measurement": "MIC", "setting": "[1]", "value": "> 32", "unit": "µg/mL"}, {"measurement": "MPC8 = concentration of efflux pump inhibitor necessary to reduce the fluconazole MIC 8-fold", "setting": "[1]", "value": 16, "unit": "µg/mL"}, {"measurement": "MIC", "setting": "[2]", "value": "> 32", "unit": "µg/mL"}, {"measurement": "MPC8", "setting": "[2]", "value": 4, "unit": "µg/mL"}]}, {"smiles": "COc1ccc(N(C(=O)Nc2cccc(F)c2)C(C)c2nc3ccccc3c(=O)n2N2CCN(C(=O)OC(C)(C)C)CC2)c(OC)c1", "note": "(centres unmarked) [Compound 89]", "values": [{"measurement": "MIC", "setting": "[1]", "value": "> 32", "unit": "µg/mL"}, {"measurement": "MPC8 = concentration of efflux pump inhibitor necessary to reduce the fluconazole MIC 8-fold", "setting": "[1]", "value": 2, "unit": "µg/mL"}, {"measurement": "MIC", "setting": "[2]", "value": "> 32", "unit": "µg/mL"}, {"measurement": "MPC8", "setting": "[2]", "value": 2, "unit": "µg/mL"}]}, {"smiles": "CCOC(=O)N1CCN(n2c(C(C)N(C(=O)Nc3ccc(F)cc3)c3ccc(OC)cc3OC)nc3cc(C#N)ccc3c2=O)CC1", "note": "(centres unmarked) [Compound 94]", "values": [{"measurement": "MIC", "setting": "[1]", "value": "> 32", "unit": "µg/mL"}, {"measurement": "MPC8 = concentration of efflux pump inhibitor necessary to reduce the fluconazole MIC 8-fold", "setting": "[1]", "value": 2, "unit": "µg/mL"}, {"measurement": "MIC", "setting": "[2]", "value": "> 32", "unit": "µg/mL"}, {"measurement": "MPC8", "setting": "[2]", "value": 0.5, "unit": "µg/mL"}]}, {"smiles": "COc1ccc(N(C(=O)Nc2ccc(F)cc2)C(C)c2nc3ccccc3c(=O)n2N2CCN(CC3CC3)CC2)c(OC)c1", "note": "(centres unmarked) [Compound 209]", "values": [{"measurement": "MIC", "setting": "[1]", "value": "> 32", "unit": "µg/mL"}, {"measurement": "MPC8 = concentration of efflux pump inhibitor necessary to reduce the fluconazole MIC 8-fold", "setting": "[1]", "value": 0.25, "unit": "µg/mL"}, {"measurement": "MIC", "setting": "[2]", "value": "> 32", "unit": "µg/mL"}, {"measurement": "MPC8", "setting": "[2]", "value": 1, "unit": "µg/mL"}]}, {"smiles": "COc1ccc(N(C(=O)Nc2ccc(F)cc2)C(C)c2nc3ccccc3c(=O)n2N2CCN(C(=O)[C@@H]3CCCN3C(C)=O)CC2)c(OC)c1", "note": "(some centres unmarked) [Compound 212]", "values": [{"measurement": "MIC", "setting": "[1]", "value": "> 32", "unit": "µg/mL"}, {"measurement": "MPC8 = concentration of efflux pump inhibitor necessary to reduce the fluconazole MIC 8-fold", "setting": "[1]", "value": 16, "unit": "µg/mL"}, {"measurement": "MIC", "setting": "[2]", "value": "> 32", "unit": "µg/mL"}, {"measurement": "MPC8", "setting": "[2]", "value": 2, "unit": "µg/mL"}]}, {"smiles": "COc1ccc(N(C(=O)Nc2ccc(F)cc2)C(C)c2nc3ccccc3c(=O)n2N2CCN(C(=O)CN3CCSCC3)CC2)c(OC)c1", "note": "(centres unmarked) [Compound 146]", "values": [{"measurement": "MIC", "setting": "[1]", "value": "> 32", "unit": "µg/mL"}, {"measurement": "MPC8 = concentration of efflux pump inhibitor necessary to reduce the fluconazole MIC 8-fold", "setting": "[1]", "value": 0.25, "unit": "µg/mL"}, {"measurement": "MIC", "setting": "[2]", "value": "> 32", "unit": "µg/mL"}, {"measurement": "MPC8", "setting": "[2]", "value": 0.25, "unit": "µg/mL"}]}, {"smiles": "COc1ccc(N(C(=O)Nc2ccc(F)cc2)C(C)c2nc3ccc(OC)cc3c(=O)n2N2CCN(C)CC2)c(OC)c1", "note": "(centres unmarked) [Compound 73]", "values": [{"measurement": "MIC", "setting": "[1]", "value": "> 32", "unit": "µg/mL"}, {"measurement": "MPC8 = concentration of efflux pump inhibitor necessary to reduce the fluconazole MIC 8-fold", "setting": "[1]", "value": 0.5, "unit": "µg/mL"}, {"measurement": "MIC", "setting": "[2]", "value": "> 32", "unit": "µg/mL"}, {"measurement": "MPC8", "setting": "[2]", "value": 2, "unit": "µg/mL"}]}]}
